Compound potency records, mixed from different reports. Data source: NIAID ChemDB in PubChem.

Common to all: whole-cell or culture tests; organism: Poliovirus; strain: TYPE 1; cells: HeLa; read-out: EC50

ECn is the concentration giving n% inhibition of infection, replication or growth. Neighbouring rows are from separate reports.

O[C@H]1[C@@H](O)COC(n2cnc3cc(Cl)c(Cl)cc32)[C@@H]1O ; result: >200 µg/mL
Cc1cn([C@@H]2CC[C@H](CO)C2)c(=O)[nH]c1=O ; result: 400 µg/mL
Nc1nccc2c1ncn2[C@@H]1O[C@H](CO)[C@@H](O)[C@H]1O ; result: ≥40 µg/mL
O=c1[nH]c(=O)n([C@H]2C[C@H](O)[C@@H](CO)O2)cc1/C=C/Br ; result: >400 µg/mL
Nc1ccn([C@@H]2C[C@H](CO)[C@@H](O)[C@H]2O)c(=O)n1 ; result: >400 µg/mL
NC(=O)c1ncn([C@@H]2O[C@H](CO)[C@@H](O)[C@H]2O)c1C#CCCO ; result: >200 µg/mL
Nc1nc(Cl)c2nnn(C[C@H]3CC[C@@H](CO)C3)c2n1 ; result: >200 µg/mL
OCCOC(CO)n1cnc2cc(Cl)c(Cl)cc21 ; result: >200 µg/mL
Nc1ncnc2c1ncn2C[C@H](O)CO ; result: >400 µg/mL
Nc1ncnc2c1ccn2[C@@H]1C[C@H](CO)[C@@H](O)[C@H]1O ; result: ≥10 µg/mL
Nc1nccc2c1ncn2[C@@H]1C=C[C@@H](O)[C@H]1O ; result: >400 µg/mL
NC(=O)c1ncn([C@@H]2O[C@H](CO)[C@@H](O)[C@H]2O)n1 ; result: 20 µg/mL
Cc1cn([C@H]2C[C@H](O)[C@@H](CO)[C@@H]2C)c(=O)[nH]c1=O ; result: 400 µg/mL
O=c1[nH]cnc2c1ncn2[C@@H]1C=C(CO)[C@@H](O)[C@H]1O ; result: >400 µg/mL
Nc1ncnc2c1c(Br)cn2[C@@H]1O[C@H](CO)[C@@H](O)[C@H]1O ; result: 0.2 µg/mL
C#Cc1c(C(N)=O)ncn1[C@@H]1O[C@H](CO)[C@@H](O)[C@H]1O ; result: >400 µg/mL
OC[C@H]1O[C@@H](n2cnc3cc(Cl)c(Cl)cc32)[C@H](O)[C@@H]1O ; result: >10 µg/mL
CCCC#Cc1c(C(N)=O)ncn1[C@@H]1O[C@H](CO)[C@@H](O)[C@H]1O ; result: >200 µg/mL
Nc1nccc2c1ncn2[C@@H]1C[C@H](CO)[C@@H](O)[C@H]1O ; result: >400 µg/mL
Nc1ncnc2c1ncn2[C@H]1[C@H](O)[C@H](O)[C@]2(CO)O[C@H]12 ; result: >10 µg/mL
OC[C@H]1O[C@@H](n2cnc3cc(Cl)c(Cl)cc32)[C@H](O)[C@H]1O ; result: >10 µg/mL
Nc1nccc2c1ncn2[C@@H]1C[C@H](CO)[C@@H](O)[C@H]1O ; result: >400 µg/mL
Cc1cn([C@@H]2C[C@H](CO)[C@H](O)C2)c(=O)[nH]c1=O ; result: 400 µg/mL
Nc1ncnc2c1ncn2C[C@H](O)CO ; result: >400 µg/mL
Nc1nc(N)c2nnn(C[C@H]3CC[C@@H](CO)C3)c2n1 ; result: >200 µg/mL
Nc1ncnc2c1ncn2[C@@H]1C=C(CO)[C@@H](O)[C@H]1O ; result: >10 µg/mL
Clc1cc2nc[nH]c2cc1Cl ; result: >10 µg/mL
Nc1ncnc2c1ncn2C[C@H](O)CO ; result: >400 µg/mL
Nc1ncnc2c1ncn2C[C@H](O)CO ; result: >400 µg/mL

The last 2 rows once more:

structure	result
Nc1ncnc2c1ncn2C[C@H](O)CO	>400 µg/mL
Nc1ncnc2c1ncn2C[C@H](O)CO	>400 µg/mL